{"source": "paper PMC12212627", "about": "“Machine Learning-Based Virtual Screening of Antibacterial Agents against Methicillin-Susceptible and Resistant Staphylococcus aureus” (Journal of Chemical Information and Modeling, 2024)", "assay_type_in_all_cases": "cell-based, Staphylococcus aureus", "details_in_all_cases": "ratio between CC50 (Vero) and MIC", "key": {"[1]": {"system": "clinical strain of MRSA n° 6154", "experiment": "Broth microdilution (CLSI): screening at 100 μM and MIC, MRSA clinical strain 6154", "protocol": "(§1) E. coli (ATCC n° […]) – a TEM-1 β-lactamase producing strain, S. aureus (ATCC n° 29213) – herein referred to as MSSA, MRSA (ATCC n° 43300), and two clinical strains of MRSA (n° 5749 and 6154) were used in the biological assays. The antibacterial activity and minimal inhibitory concentration (MIC) of the screened compounds were evaluated with the broth microdilution method in 96-well microplates, according to the Clinical and Laboratory Standards Institute (CLSI) protocol. Initially, compounds were evaluated in a screening assay to identify promising hits. The compounds were dissolved in dimethyl sulfoxide (DMSO) and then diluted in Mueller Hinton broth (MHB; Oxoid, Thermo Scientific, U.K.) to a concentration of 200 μM. After the addition of 100 μL to each well, the same volume of bacterial suspension containing 10^5 CFU/mL was added to each of the previous solutions, resulting in a final compound concentration of 100 μM. A viability control (bacterial suspension only), inhibition controls (MHB containing five times the MIC of penicillin G for MSSA, vancomycin for MRSA strains, and streptomycin for E. coli), a sterility control (medium only), and a vehicle control (DMSO 2% v/v) were included in each assay microplate. After 24 h of incubation at 37 °C, the microplates were visually inspected for inhibition of bacterial growth, and the absorbance at 600 nm of each well was read using a microplate reader spectrophotometer (VersaMax, Molecular Devices, CA). The percentage of growth inhibition was calculated as the percentage of growth reduction compared with the vehicle control. Wells showing no visual bacterial growth (no turbidity) were considered hits. The MIC of the promising compounds in the initial screening were tested as previously described, with a serial dilution of each compound (100–1.56 μM). All conditions were tested in triplicate from at least three independent assays."}, "[2]": {"system": "clinical strain of MRSA n° 5749", "experiment": "Broth microdilution (CLSI): screening at 100 μM and MIC, MRSA clinical strain 5749", "protocol": "as §1"}, "[3]": {"system": "S. aureus (ATCC n° 29213), MSSA", "experiment": "Broth microdilution (CLSI): screening at 100 μM and MIC, MSSA", "protocol": "as §1"}, "[4]": {"system": "MRSA (ATCC n° 43300)", "experiment": "Broth microdilution (CLSI): screening at 100 μM and MIC, MRSA reference strain", "protocol": "as §1"}}}
{"smiles": "O=C(NCCCOCCCNC(=O)c1ccc(-c2ccc(Br)cc2)o1)c1ccc(-c2ccc(Br)cc2)o1", "note": "[Compound 6, N,N′-(oxybis(propane-3,1-diyl))-bis(5-(4-bromophenyl)furan-2-carboxamide)]", "values": [{"measurement": "SI, MRSA (6154)", "setting": "[1]", "result": 0.43}, {"measurement": "SI, MRSA (5749)", "setting": "[2]", "result": 0.43}, {"measurement": "SI, MSSA (ATCC 29123)", "setting": "[3]", "result": 0.87}, {"measurement": "SI, MRSA (ATCC 43300)", "setting": "[4]", "result": 0.43}]}
{"smiles": "CC(=O)O[C@@H]1[C@H](OC(C)=O)[C@H](C)O[C@H](n2cc(COC3=CC(=O)c4ccccc4C3=O)nn2)[C@H]1OC(C)=O", "note": "[Compound 1, 2-[1-(2,3,4-tri-O-acetyl-6-deoxy-β-L-galactopyranosyl)-1,2,3-triazol-4-(methyl)oxy]-1,4-naphtoquinone]", "values": [{"measurement": "SI, MRSA (6154)", "setting": "[1]", "result": "<0.33"}, {"measurement": "SI, MRSA (5749)", "setting": "[2]", "result": "<0.33"}, {"measurement": "SI, MSSA (ATCC 29123)", "setting": "[3]", "result": 0.33}, {"measurement": "SI, MRSA (ATCC 43300)", "setting": "[4]", "result": "<0.33"}]}
{"smiles": "Cc1ccc(OCC(N)COc2ccc(C)cc2)cc1", "note": "[Compound 4, 1,3-bis(4-methylphenoxy)propano-2-aminium chloride]", "values": [{"measurement": "SI, MSSA (ATCC 29123)", "setting": "[3]", "result": 0.38}, {"measurement": "SI, MRSA (ATCC 43300)", "setting": "[4]", "result": 0.19}]}
{"smiles": "C#CCOC1=CC(=O)c2ccccc2C1=O", "note": "[Compound 3, 2-[(prop-2-yn-1-yl)oxy]-1,4-naphtoquinone]", "values": [{"measurement": "SI, MRSA (6154)", "setting": "[1]", "result": 0.42}, {"measurement": "SI, MRSA (5749)", "setting": "[2]", "result": 0.42}, {"measurement": "SI, MSSA (ATCC 29123)", "setting": "[3]", "result": 0.42}, {"measurement": "SI, MRSA (ATCC 43300)", "setting": "[4]", "result": 0.42}]}
